Target: his-tagged recombinant CFP-SNAP-25-YFP chimera protein (purified from E. coli) (UniProt P60881)

Substance: botulinum neurotoxin A (BoNT/A) holotoxin
- FRET ratio against toxin concentration over time, plate reader: higher toxin concentration resulted in faster decrease of the FRET ratio

From patent publication US20160356776
